Anti-infective test results gathered from many reports (values: NIAID ChemDB through PubChem).

Shared fields: growth or infection tests; species: HIV-2; read by: syncytia; read-out: EC50

ECn is the concentration giving n% inhibition of infection, replication or growth. Lines come from different laboratories, so protocols vary.

SMILES | strain | cell line | result
COC(=O)[C@H](C)NP(=O)(OC[C@@H]1C=CC(n2ccc(=O)[nH]c2=O)O1)Oc1cccc2ccccc12 | ROD | CEM | >10 µM
O=c1cnn([C@H]2C[C@H](O)[C@@H](CO)S2)c(=O)[nH]1 | ROD | CEM | >100 µM
Cn1c(=O)sc2cc(C(=O)c3ccccc3)ccc21 | ROD | CEM | 3.5 µg/mL
O=C1c2ccccc2C(=O)N1C12CC3CC(CC(C3)C1)C2 | ROD | CEM | >704 µM
OC[C@H]1O[C@H](c2cc(Cl)c(F)cc2F)C[C@@H]1O | ROD | CEM | >250 µM
COC(=O)CCCCn1c(=O)c(C)cn([C@@H]2O[C@H](CO[Si](C)(C)C(C)(C)C)[C@@H](O)[C@H]2O[Si](C)(C)C(C)(C)C)c1=O | ROD | CEM | >10 µM
CCCCC(=O)c1ccc2c(c1)oc(=O)n2CCN1CCOCC1 | ROD | CEM | >8 µg/mL
C[C@H](NP(=O)(OC[C@@H]1C=C[C@H](n2ccc(=O)[nH]c2=O)O1)Oc1ccccc1)C(=O)OCc1ccccc1 | ROD | CEM | >50 µM
Cc1cn([C@@H]2O[C@H](CO[Si](C)(C)C(C)(C)C)[C@@H](O)[C@H]2O[Si](C)(C)C(C)(C)C)c(=O)n(CCCCC(=O)O)c1=O | ROD | CEM | >10 µM
CCCCn1c(=O)cnn([C@H]2C[C@H](O)[C@@H](CO)S2)c1=O | ROD | CEM | >20 µM
CC(C)OC(=O)[C@H](C)NP(=O)(OC[C@@H]1C=CC(n2ccc(=O)[nH]c2=O)O1)Oc1cccc2ccccc12 | ROD | CEM | 185 µM
Nc1nc(N)n(CCOCP(=O)(O)O)c(=O)c1Cc1ccccc1 | ROD | CEM | ≥300 µM
C[C@H](NP(=O)(OC[C@@H]1CCC(n2ccc(=O)[nH]c2=O)O1)Oc1ccccc1)C(=O)OCc1ccccc1 | ROD | CEM | 50.8 µM
O=C1c2ccccc2C(=O)N1CC12CC3CC(CC(O)(C3)C1)C2 | ROD | CEM | >20 µg/mL
O=C1c2ccc(Cl)cc2C(=O)N1C12CC3CC(CC(C3)C1)C2 | ROD | CEM | >110 µM
COc1ccc(C)cc1CS(=O)(=O)c1cccc[n+]1[O-] | ROD | CEM | 40 µg/mL
O=C(c1cccc(F)c1)c1ccc2[nH]c(=O)oc2c1 | ROD | CEM | >8 µg/mL
O=C1c2ccccc2[C@]2(O)C3C4C[C@H]5CC(C[C@H]3C5)C4N12 | ROD | CEM | >20 µg/mL
Cc1c(N)nc(N)nc1OCCOCP(=O)(O)O | ROD | CEM | 0.27 µM
CCCCCCCCCC[N+](C)(C)CCCNCc1c(O)cc2c(c1O)-c1cc(ccc1O)[C@H]1NC(=O)[C@@H]3NC(=O)C4NC(=O)[C@@H](Cc5ccc(c(Cl)c5)Oc5cc3cc(c5O)Oc3ccc(cc3Cl)[C@@H](O)[C@H](NC1=O)C(=O)N[C@@H]2C(=O)O)NC(=O)[C@H](N)c1ccc(O)c(c1)Oc1cc(O)cc4c1 | RF | CEM | 3.7 µM
O=C1c2ccccc2C(=O)N1CCCC12CC3CC(CC(C3)C1)C2 | ROD | CEM | >4 µg/mL
Cc1c(N)nc(N)n(CCOCP(=O)(O)O)c1=O | ROD | CEM | ≥300 µM
Cc1cccc(C)c1N1C(=O)c2ccc([N+](=O)[O-])cc2C1=O | ROD | CEM | >667 µM
CC1=CC=CN(C)C1SCc1cc(C)ccc1C | ROD | CEM + CEM-SS | >4 µg/mL
O=C(c1cccc([N+](=O)[O-])c1)c1ccc2c(c1)sc(=O)n2Cc1ccccc1 | ROD | CEM | >1.6 µg/mL
O=S(=O)(Cc1ccccc1I)c1cccc[n+]1[O-] | EHO | CEM | 12 µg/mL
O=C(O)C1=CC(=C(c2ccc(O)c(C(=O)O)c2)c2ccc(O)c(C(=O)O)c2)C=C(Cc2ccc(O)c(C(=O)O)c2)C1=O | ROD | MOLT-4/HUT-78 | 1 µg/mL
CC(C)(C)[Si](C)(C)OC[C@@H]1CC[C@H](n2cnc3c(=O)n(CC(=O)O)cnc32)O1 | ROD | CEM | >200 µM
NC(=O)c1cc2c([nH]c3ccccc32)c(-c2ccc(CO)o2)n1 | CBL-20 | C8166 | 0.89 µM
O=S(=O)(Cc1ccc(CS(O)(O)c2ccc[n+]([O-])c2)cc1)c1cccc[n+]1[O-] | ROD | CEM + CEM-SS | ≥20 µg/mL
O=C1c2ccccc2C(=O)N1C12CC3CC(CC(C3)C1)C2 | ROD | CEM | >4 µg/mL
Nc1nc(N)c(Br)c(OCCOCP(=O)(O)O)n1 | ROD | CEM | 9.5 µM
Cc1cn([C@@H]2O[C@H](CO[Si](C)(C)C(C)(C)C)[C@@H](O)[C@H]2O[Si](C)(C)C(C)(C)C)c(=O)n(Cc2nn[nH]n2)c1=O | ROD | CEM | >10 µM
Cc1cn([C@@H]2O[C@H](CO[Si](C)(C)C(C)(C)C)C3(OS(=O)(=O)C=C3N)[C@H]2O[Si](C)(C)C(C)(C)C)c(=O)n(CCCCCCCCn2c(=O)c(C)cn([C@H]3C[C@H](N=[N+]=[N-])[C@@H](CO)O3)c2=O)c1=O | ROD | CEM + CEM/0 | >100 µM
COC(=O)[C@H](C)NP(=O)(OC[C@@H]1C=C[C@H](n2cc(C)c(=O)[nH]c2=O)O1)Oc1ccc(F)cc1 | ROD | CEM + CEM/0 | 0.19 µM
COc1ccc(/C=C(\C#N)Sc2ccccc2O)cc1 | ROD | CEM + CEM-SS | >20 µg/mL
Cc1cccc(C(=O)c2ccc3c(c2)sc(=O)n3C)c1 | ROD | CEM | <1.6 µg/mL
CCCCCCn1c(=O)cnn([C@H]2C[C@H](O)[C@@H](CO)S2)c1=O | ROD | CEM | >100 µM
Cc1cn([C@H]2C=C[C@@H](CO)O2)c(=O)[nH]c1=O | ROD | CEM + CEM/0 | 0.78 µM
Cn1c(=O)cnn([C@H]2C[C@H](O)[C@@H](CO)S2)c1=O | ROD | CEM | >100 µM
O=C(O)c1cccc(Cc2cccc(C(=O)O)c2O)c1O | ROD | MOLT-4/HUT-78 | 9 µg/mL
Nc1cc(OCCOCP(=O)(O)O)nc(N)n1 | ROD | CEM | 1.6 µM
O=C(c1ccc([N+](=O)[O-])cc1)c1ccc2[nH]c(=O)oc2c1 | ROD | CEM | >8 µg/mL
O=C1c2ccccc2[C@@]2(O)[C@H]3C4CC5CC(C4)CC3(C5)CN12 | ROD | CEM | >4 µg/mL
CNOC(=O)Cn1c(=O)c(C)cn([C@@H]2O[C@H](CO[Si](C)(C)C(C)(C)C)[C@@H](O)[C@H]2O[Si](C)(C)C(C)(C)C)c1=O | ROD | CEM | >10 µM
Nc1nc(N)c(Cc2ccccc2)c(OCCOCP(=O)(O)O)n1 | ROD | CEM | ≥300 µM
O=C(O)c1cc(Cc2cc(C(c3ccc(O)c(C(=O)O)c3)c3ccc(O)c(C(=O)O)c3)cc(C(=O)O)c2O)ccc1O | ROD | MOLT-4/HUT-78 | 7 µg/mL
COC(=O)Cn1c(=O)c(C)cn([C@H]2C=C[C@@H](CO[Si](C)(C)C(C)(C)C)O2)c1=O | ROD | CEM | >10 µM

A second listing of 7 rows from above:

Cc1cccc(C)c1N1C(=O)c2ccc([N+](=O)[O-])cc2C1=O ; strain: ROD ; cell line: CEM ; result: >667 µM
C[C@H](NP(=O)(OC[C@@H]1C=C[C@H](n2ccc(=O)[nH]c2=O)O1)Oc1ccccc1)C(=O)OCc1ccccc1 ; strain: ROD ; cell line: CEM ; result: >50 µM
Cc1cn([C@@H]2O[C@H](CO[Si](C)(C)C(C)(C)C)[C@@H](O)[C@H]2O[Si](C)(C)C(C)(C)C)c(=O)n(CCCCC(=O)O)c1=O ; strain: ROD ; cell line: CEM ; result: >10 µM
O=C(O)c1cc(Cc2cc(C(c3ccc(O)c(C(=O)O)c3)c3ccc(O)c(C(=O)O)c3)cc(C(=O)O)c2O)ccc1O ; strain: ROD ; cell line: MOLT-4/HUT-78 ; result: 7 µg/mL
CCCCC(=O)c1ccc2c(c1)oc(=O)n2CCN1CCOCC1 ; strain: ROD ; cell line: CEM ; result: >8 µg/mL
COC(=O)CCCCn1c(=O)c(C)cn([C@@H]2O[C@H](CO[Si](C)(C)C(C)(C)C)[C@@H](O)[C@H]2O[Si](C)(C)C(C)(C)C)c1=O ; strain: ROD ; cell line: CEM ; result: >10 µM
O=c1cnn([C@H]2C[C@H](O)[C@@H](CO)S2)c(=O)[nH]1 ; strain: ROD ; cell line: CEM ; result: >100 µM